Drawing on PubChem BioAssay AID1251 (SRMLSC, 2008), this text covers inhibition for 58 compounds.

Only a part is listed here, and it is no random draw. Activity calls are given as the source filed them. Cut-off read from the data, not from the text of the source: active = inhibition above about 30%; inactive = the rest, inconclusive results apart.

This assay is described as follows: antivirals against arbovirus infection, primary screen, cell-based, full library, 10K replicate subset (AID 1251). To be noted: arbovirus infection cell-based antiviral screen; at 10 µM; hits give high values.
As usually defined, the inhibition is the drop in the measured response relative to a control, in per cent. Turning to `O=P(Nc1ccccn1)(c1cccc2ccccc12)c1cccc2ccccc12`, the inhibition is inactive: 10%.

For the compound `Cc1cc(SC(NC=O)C(Cl)(Cl)Cl)ncn1` (stereo not drawn), the inhibition was inactive: 3.82%.

Turning to `COc1ccccc1OP(C)(=O)Nc1ccccc1` (stereo not drawn), the inhibition was inactive: -2.41%.

Regarding `CP(=O)(Nc1ccccc1Br)Oc1ccccc1` (stereo not drawn), the inhibition was inactive: 6.98%.

For the compound `CP(=S)(Nn1cnnc1)Oc1ccccc1` (stereo not drawn), the inhibition is inactive: 8.87%.

On to `Cc1cc(SC(NC(=O)c2ccccc2)C(Cl)(Cl)Cl)nc(C(C)C)n1` (stereo not drawn), for which the inhibition was inactive: -7.52%.

`CCCOc1ccc(NP(C)(=O)Oc2ccc(Cl)cc2)cc1` (stereo not drawn): the inhibition is inactive: 6.78%.

`CP(=O)(Nc1ccc(SC(F)(F)F)cc1)Oc1ccccc1` (stereo not drawn): the inhibition is inactive: -2.07%.

In the case of `Cc1ccc(OCC(=O)OC2CN3CCC2CC3)cc1` (stereo not drawn), the inhibition is inactive: 4.68%.

As to `O=P1(Nc2ccc(Br)cn2)COc2ccccc2OC1`, the inhibition is inactive: -1.2%.

In the case of `COc1ccccc1OP(C)(=O)Nc1c(C)cccc1C` (stereo not drawn), the inhibition is inactive: 12.4%.

For `CN1CCCCC1COC(=O)C1(O)c2ccccc2CCc2ccccc21` (stereo not drawn), the inhibition is inactive: -3.96%.

For the compound `O=P1(Nc2ncccn2)COc2ccccc2OC1`, the inhibition was inactive: 2.94%.

For the compound `CN(C)C1(CNC(=O)c2ccc(S(C)(=O)=O)cc2)CCCCC1`, the inhibition was inactive: -1.19%.

Consider `Cc1nn(-c2ccccc2)c2c1P(=O)(N1CCOCC1)N(C)C(c1ccccc1)=N2` (stereo not drawn), for which the inhibition is inactive: 2.02%.

On to `CC1CCC(C(C)C)C(OP(=O)(Nc2ccccn2)c2ccccc2)C1` (stereo not drawn), for which the inhibition is inactive: -7.22%.

With `COc1cc(C2NCCC3(OCCO3)C2(C)C)cc(OC)c1OC.O=[N+]([O-])c1cc([N+](=O)[O-])c(O)c([N+](=O)[O-])c1` (stereo not drawn), the inhibition is inactive: 10.4%.

For `CC(C)/C=N\N=C(\N)N[N+](=O)[O-]`, the inhibition is inactive: 10.2%.

In the case of `CN(C(=O)Cc1ccc(Cl)c(Cl)c1)[C@@H]1CCCC[C@H]1N1CCCC1`, the inhibition was inactive: -7.85%.

For the compound `Cc1nc2ccc3ccccc3c2s1.O=[N+]([O-])c1cc([N+](=O)[O-])c(O)c([N+](=O)[O-])c1`, the inhibition is inactive: 7.93%.

For `Clc1n[nH]nc1-c1nn[nH][15n]1`, the inhibition is inactive: -3.78%.

With `O=P1(Nc2ccccn2)COc2ccccc2OC1`, the inhibition was inactive: -5.13%.

On to `O=[N+]([O-])c1cc([N+](=O)[O-])c(-n2nnc3ccccc32)c([N+](=O)[O-])c1`, for which the inhibition was inactive: 3.55%.

`CCOP(=O)(Nc1cccc2ccccc12)OCC`: the inhibition was inactive: -7.75%.

On to `Cc1cc(C)cc(OP(C)(=O)Nc2ccccn2)c1` (stereo not drawn), for which the inhibition is inactive: 1.39%.

For the compound `CP(=O)(Nc1cccc(Br)c1)Oc1ccccc1` (stereo not drawn), the inhibition is inactive: 1.02%.

`Cc1ccc(NCCc2c([N+](=O)[O-])cc([N+](=O)[O-])cc2[N+](=O)[O-])cc1`: the inhibition was inactive: -4.25%.

As to `Cc1ccc(C)c(NP(C)(=O)Oc2ccccc2)c1` (stereo not drawn), the inhibition was inactive: 9.93%.

Regarding `Cc1cccc(OCC(=O)OC2CN3CCC2CC3)c1` (stereo not drawn), the inhibition is inactive: 5.43%.

Take `Cc1cc(C)cc(OP(C)(=O)Nc2ccc(C)cc2C)c1` (stereo not drawn): the inhibition is inactive: -6.44%.

Turning to `CCOC(=O)c1ccc(NP(C)(=O)Oc2cc(C)cc(C)c2)cc1` (stereo not drawn), the inhibition was inactive: -16.7%.

For the compound `COc1cc(C(=O)NCC2(N3CCOCC3)CCCCC2)cc(Cl)c1OC(C)C`, the inhibition is inactive: 9.93%.

As to `CCOP1(=S)c2c(C)nn(CCC#N)c2N=C(c2ccc(F)cc2)N1C` (stereo not drawn), the inhibition was inactive: -8.47%.

With `O=[N+]([O-])c1ccc2c(c1)nnn2O`, the inhibition was inactive: 4.81%.

`CC1=NCCc2c1[nH]c1ccccc21.O=[N+]([O-])c1cc([N+](=O)[O-])c(O)c([N+](=O)[O-])c1`: the inhibition was inactive: 17.6%.

`CCOP1(=S)c2c(C)nn(CCC#N)c2N=C(c2ccccc2F)N1C` (stereo not drawn): the inhibition is inactive: -8.59%.

On to `O=P(Nc1nccs1)(Oc1ccccc1)Oc1ccccc1`, for which the inhibition is inactive: 5.54%.

As for `O=P(Nc1nccs1)(c1ccccc1)c1nc2ccccc2s1` (stereo not drawn), the inhibition was inactive: 0.43%.

For the compound `O=c1c2cc([N+](=O)[O-])ccc2[nH]c2c([N+](=O)[O-])cc([N+](=O)[O-])cc12`, the inhibition is inactive: -38.4%.

In the case of `CP(=O)(Nc1ccccc1)Oc1ccc(F)cc1` (stereo not drawn), the inhibition is inactive: 15.2%.

Regarding `CCN(CC)CCCOC(=O)C(O)(c1ccccc1)C1CCCCC1` (stereo not drawn), the inhibition is inactive: -17.2%.

On to `CCC(=O)N1C2C3N(C(=O)CC)C1C1N(C(=O)CC)C(C(N1C(=O)CC)N3C(=O)CC)N2C(=O)CC`, for which the inhibition was inactive: 0.74%.

As for `COC(=O)c1cc2c(s1)N=C(c1ccccc1)N(C)P2(=O)N1CCOCC1` (stereo not drawn), the inhibition is inactive: 3%.

For the compound `CC(=O)NC(SC(=S)N(CC(C)C)CC(C)C)C(Cl)(Cl)Cl` (stereo not drawn), the inhibition was inactive: -6.39%.

For the compound `Cc1ccc(OP(=O)(Nc2ccccn2)Oc2ccc(C)cc2)cc1`, the inhibition was inactive: 11.7%.

For the compound `COc1ccc(OP(C)(=O)Nc2ccc(SC(F)(F)F)cc2)cc1` (stereo not drawn), the inhibition was inactive: -4.24%.

`CCOC(=O)c1ccc(NP(C)(=O)Oc2ccc(F)cc2)cc1` (stereo not drawn): the inhibition is inactive: -0.26%.

Regarding `c1ccc(-c2nn[nH]n2)c(-c2nn[nH]n2)c1`, the inhibition is inactive: 2.89%.

For the compound `CCOC(=O)NC(Sc1ccccc1)C(Cl)(Cl)Cl` (stereo not drawn), the inhibition is inactive: -1.93%.

With `CCNC(=S)/N=C(\N)N[N+](=O)[O-]`, the inhibition was inactive: 1.72%.

Take `CC(=O)Nc1ccc(Oc2c([N+](=O)[O-])cc([N+](=O)[O-])cc2[N+](=O)[O-])cc1`: the inhibition is inactive: 6.32%.

As for `O=C(OCCN1CCN(CCOCc2ccccc2)CC1)C(O)(c1ccccc1)c1ccccc1`, the inhibition is inactive: -3.55%.

`CC(C)(C)C(=O)NC(Sc1ccccc1)C(Cl)(Cl)Cl` (stereo not drawn): the inhibition is inactive: 7.94%.

For `CC(C)c1ccc(OP(C)(=O)Nc2ccc(SC(F)(F)F)cc2)cc1` (stereo not drawn), the inhibition is inactive: -9.16%.

For the compound `CP(=O)(Nc1ccccc1F)Oc1ccccc1` (stereo not drawn), the inhibition was inactive: 7.19%.

Regarding `O=P1(Nc2nc3ccc(Cl)cc3s2)COc2ccccc2O1` (stereo not drawn), the inhibition was inactive: 3.32%.

For the compound `CCOc1ccc(C2=NCC(CBr)S2)cc1` (stereo not drawn), the inhibition is inactive: -4.83%.

Turning to `Cc1ccccc1NP(C)(=O)Nc1ccccc1C`, the inhibition is inactive: 1.69%.
